Compound potency records, mixed from different reports. Data source: NIAID ChemDB in PubChem.

Shared fields: whole-cell or culture tests; agent: HIV-1; cells: MT-4; endpoint: EC50

An empty or dashed field is not shown.

| compound | strain | mutations | read by | value |
|---|---|---|---|---|
| Cc1nc2ccccc2c(-c2cc(F)c3c(c2C)CCCO3)c1[C@H](OC(C)(C)C)C(=O)O | NL4-3 | T125A | luminescence | 0.028 µM |
| Cc1cc(-c2ccc(C#N)cc2)cc(Cl)c1Oc1nc(Nc2ccc(C#N)cc2)nc2ccsc12 | IIIB | Y188L | MTT | 0.1075 µM |
| Nc1nc(NC2CC2)c2ncn([C@H]3C=C[C@@H](CO)C3)c2n1 | NL-XM WT |  | p24 | <1.9 µM |
| N#CCC1Nc2ccccc2S(=O)(=O)n2cccc21 | IIIB |  | MTT | 122 µM |
| CC(C)CN(C[C@@H](O)[C@H](Cc1ccccc1)NC(=O)O[C@H]1CO[C@H]2OCC[C@H]21)S(=O)(=O)c1ccc(N)c(NCc2ccccc2)c1 | IIIB WT |  | GFP | 0.0038 µM |
| N#Cc1ccc(Nc2nc(Oc3ccc(-c4ccc(C#N)cc4)c(F)c3F)c3sccc3n2)cc1 | RES056 |  | MTT | >2.04 µM |
| CC(C)CN(C[C@@H](O)[C@H](Cc1ccccc1)NC(=O)O[C@H]1CO[C@H]2OCC[C@H]21)S(=O)(=O)c1ccc2nc(NC3CCN(C4CCCC4)CC3)sc2c1 | LAI |  | reporter gene | 14.2 nM |
| CCc1c(Cc2cccc(Cc3nc(SC(C)CC)[nH]c(=O)c3CC)c2)nc(SC(C)CC)[nH]c1=O | RT-K103N+Y181C NNRTI-resistant | RT-K103N Y181C | cytopathic effect / MTT | >27 µM |
| CC1(C)CC=C(c2cn(-c3nccc(C(=O)NC4CCC(N5CC6CCC(C5)O6)CC4)n3)c3ccc(F)c([C@H](OC(C)(C)C)C(=O)O)c23)CC1 | NL4-3 | E92Q/G140S/Q148H | luminescence | 0.0052 µM |
| N#Cc1ccc(Nc2nc(Oc3c(F)cc(-c4ccc(C#N)cc4)cc3F)c3sccc3n2)cc1 | IIIB | L100I | MTT | 0.0478 µM |
| O=C1Nc2ccc(Cl)cc2[C@@](C#CC2CC2)(C(F)(F)F)O1 |  | K103N/Y181C |  | 0.0828 µM |
| CC(C)CN(C[C@@H](O)[C@H](Cc1ccccc1)NC(=O)O[C@H]1CO[C@H]2OCC[C@H]21)S(=O)(=O)c1ccc(N)c(NCC2CCN(C(=O)OC(C)(C)C)CC2)c1 | IIIB WT |  | GFP | 0.00501 µM |
| CS(=O)(=O)OCC1Nc2ccccc2S(=O)(=O)n2cccc21 | IIIB |  | MTT | >130 µM |
| Cc1cc(/C=C/C#N)cc(C)c1Oc1ccnc(S(=O)(=O)CC(=O)Nc2ccc(Cl)cc2)n1 | IIIB |  | MTT | 0.007 µM |
| CC(=O)c1ccc(C)cc1NC(C(N)=O)c1c(Cl)cccc1Cl | RF |  | cytopathic effect / MTT | 0.015 µM |
| Cc1cc(C#N)cc(C)c1Oc1ccnc(S(=O)(=O)CC(=O)Nc2ccc(C#N)cc2)n1 | IIIB | Y181C | MTT | 0.017 µM |
| CCOCn1c(Cc2cccc(Cc3[nH]c(=O)[nH]c(=O)c3CC)c2)c(CC)c(=O)[nH]c1=O |  |  | cytopathic effect / MTT | 47 µM |
| CC(C)CN(C[C@@H](O)[C@H](Cc1ccccc1)NC(=O)O[C@H]1CO[C@H]2OCC[C@H]21)S(=O)(=O)c1ccc(N)c(NCC2CCCO2)c1 | IIIB WT |  | GFP | 0.00437 µM |
| N#Cc1ccc(Nc2nc(Oc3ccc(-c4ccc(C#N)cc4)cc3Cl)c3sccc3n2)cc1 | IIIB |  | MTT | 0.0397 µM |
| Cc1cc(-c2ccc(C#N)cc2)cc(C)c1Oc1ccnc(S(=O)(=O)CC(=O)Nc2ccc(Cl)cc2)n1 | IIIB | Y188L | MTT | 0.938 µM |
| CCOC(=O)CC1Nc2ccccc2S(=O)(=O)n2cccc21 | IIIB |  | MTT | >312 µM |
| CCc1c(Cc2cccc(Cc3nc(SC)n(C)c(=O)c3CC)c2)nc(SC)n(C)c1=O |  |  | cytopathic effect / MTT | >100 µM |
| Cc1cc(-c2ccc(C#N)cc2)cc(C)c1Oc1ccnc(S(=O)(=O)CC(=O)Nc2ccc(F)cc2)n1 | IIIB | E138K | MTT | 0.112 µM |
| CC(C)CN(C[C@@H](O)[C@H](Cc1ccccc1)NC(=O)O[C@H]1CO[C@H]2OCC[C@H]21)S(=O)(=O)c1ccc(N)c(NCCCn2ccnc2)c1 | IIIB WT |  | GFP | 0.324 µM |
| C=CCOCn1c(Cc2cccc(Cc3c(CC)c(=O)[nH]c(=O)n3COCC=C)c2)c(CC)c(=O)[nH]c1=O |  |  | cytopathic effect / MTT | 34 µM |
| CC(=O)c1ccccc1N[C@H](C(N)=O)c1c(Cl)cccc1Cl | IIIB |  | cytopathic effect / MTT | 0.02 µM |
| Cc1cc(-c2ccc(C#N)cc2)cc(C)c1Oc1ccnc(S(=O)(=O)C(C)C(=O)Nc2ccc(Cl)cc2)n1 | RES056 |  | MTT | 3.294 µM |
| CCc1c(Cc2cccc(Cc3nc(SC(C)C)[nH]c(=O)c3CC)c2)nc(SC(C)C)[nH]c1=O | NNRTI-resistant | RT-Y181C | cytopathic effect / MTT | >36 µM |
| Cc1cc(-c2ccc(C#N)cc2)cc(C)c1Oc1ccnc(S(=O)(=O)C(C)C(=O)Nc2ccc(C#N)cc2)n1 | IIIB | K103N | MTT | 0.019 µM |
| CCc1c(Cc2cccc(Cc3nc(SC(C)C)[nH]c(=O)c3CC)c2)nc(SC(C)C)nc1OC(C)C | RT-K103N+Y181C NNRTI-resistant | RT-K103N Y181C | cytopathic effect / MTT | >43 µM |
| CC(C)CN(C[C@@H](O)[C@H](Cc1ccccc1)NC(=O)O[C@H]1CO[C@H]2OCC[C@H]21)S(=O)(=O)c1ccc(N)c(NCc2ccc3c(c2)OCO3)c1 | IIIB WT |  | GFP | 0.00676 µM |
| Cc1cn([C@H]2C=C[C@@H](CO)O2)c(=O)[nH]c1=O | RD 02-RT-210W 215C Recombinant |  | cytopathic effect / MTT | 0.33 µM |
| CCc1c(Cc2cccc(Cc3nc(N(C)C)[nH]c(=O)c3CC)c2)nc(N(C)C)[nH]c1=O |  |  | cytopathic effect / MTT | >100 µM |
| Cc1cc(-c2ccc(C#N)cc2)cc(C)c1Oc1ccnc(S(=O)(=O)CC(=O)Nc2ccc(Br)cc2)n1 | IIIB | K103N | MTT | 0.03 µM |
| CC(C)CN(C[C@@H](O)[C@H](Cc1ccccc1)NC(=O)O[C@H]1CO[C@H]2OCC[C@H]21)S(=O)(=O)c1ccc(N)c(NCCO)c1 | IIIB WT |  | GFP | 0.275 µM |
| COC(=O)CC1Nc2ccccc2S(=O)(=O)n2cccc21 | IIIB |  | MTT | 19.5 µM |
| Cc1cn([C@H]2C=C[C@@H](CO)O2)c(=O)[nH]c1=O | XM-Q151M | RT-A62V V75I F77C F116Y Q151M | p24 | <22 µM |
| Cc1cc(-c2ccc(C#N)cc2)cc(C)c1Oc1ccnc(S(=O)(=O)C(C)C(=O)NCc2ccc(Br)cc2)n1 | IIIB |  | MTT | >4.77 µM |

A second listing of 4 rows from above:

{"compound": "COC(=O)CC1Nc2ccccc2S(=O)(=O)n2cccc21", "strain": "IIIB", "read by": "MTT", "value": "19.5 µM"}
{"compound": "CC(=O)c1ccc(C)cc1NC(C(N)=O)c1c(Cl)cccc1Cl", "strain": "RF", "read by": "cytopathic effect / MTT", "value": "0.015 µM"}
{"compound": "Cc1cc(-c2ccc(C#N)cc2)cc(C)c1Oc1ccnc(S(=O)(=O)C(C)C(=O)NCc2ccc(Br)cc2)n1", "strain": "IIIB", "read by": "MTT", "value": ">4.77 µM"}
{"compound": "Cc1cc(-c2ccc(C#N)cc2)cc(C)c1Oc1ccnc(S(=O)(=O)C(C)C(=O)Nc2ccc(Cl)cc2)n1", "strain": "RES056", "read by": "MTT", "value": "3.294 µM"}

ECn: concentration that inhibits the pathogen or its effect by n%. Rows are shuffled and stem from different studies.